The results in this text go back to paper PMC7990223.

One experiment addresses mACE2 (F83Y) (mouse) (UniProt Q8R0I0).
Experiment [1] addresses mACE2 (F83Y/H353K) (mouse) (UniProt Q8R0I0).
The next experiment addresses mACE2 (H353K) (mouse) (UniProt Q8R0I0).

As for “S1 domain of the SARS-CoV spike protein C-terminally fused with Fc (from UniProt P59594 14-667)”, the percent of ACE2-expressing (zsGreen1+) cells positive for S1-Fc in the experiment with mACE2 (F83Y) (mouse) is 63.7%; in experiment [1], 81.8%; in the experiment with mACE2 (H353K) (mouse), 83.1%.
